From PubChem BioAssay AID1721 (National Center for Advancing Translational Sciences (NCATS), 2009) come the findings set out here.

Sequences of proteins named here, by UniProt entry; tags and fusion partners are left off. A change or cut given only in a name is not applied to a line headed by its entry.
UniProt Q27686: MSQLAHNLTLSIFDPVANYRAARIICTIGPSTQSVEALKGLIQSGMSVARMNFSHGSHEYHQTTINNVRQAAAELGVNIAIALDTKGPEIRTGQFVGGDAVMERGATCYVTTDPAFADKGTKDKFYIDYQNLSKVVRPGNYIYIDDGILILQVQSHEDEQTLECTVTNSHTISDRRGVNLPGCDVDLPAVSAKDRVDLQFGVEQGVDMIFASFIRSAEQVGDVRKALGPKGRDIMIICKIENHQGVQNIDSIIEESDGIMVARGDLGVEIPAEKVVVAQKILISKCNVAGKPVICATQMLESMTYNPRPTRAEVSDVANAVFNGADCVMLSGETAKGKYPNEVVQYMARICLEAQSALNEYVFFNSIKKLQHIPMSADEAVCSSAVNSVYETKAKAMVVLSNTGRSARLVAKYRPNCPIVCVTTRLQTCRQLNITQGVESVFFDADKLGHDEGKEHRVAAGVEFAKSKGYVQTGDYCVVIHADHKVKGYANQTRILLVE

The list shows a part of the results, in another mix than the full data. Active and inactive are the calls of the source. The call rests on the fitted dose curve; in most records, active means well fitted inhibition curve with a large enough effect; inconclusive means small, poorly fitted or top-dose-only effect, or another doubt; inactive means no such curve, though single readings can be large or run the other way.
On the % scale 0 is the no-effect control and ±100 the full control effect.

This test deals with Pyruvate kinase (Leishmania mexicana) (UniProt Q27686). Description: qHTS Assay for Inhibitors of Leishmania Mexicana Pyruvate Kinase (LmPK). The following applies: purified LmPK, Kinase-Glo ATP luminescence, 1 h; at 57.5 µM (top of the series). An excerpt: NIH Chemical Genomics Center [NCGC] Malcolm Walkinshaw, Hugh Morgan, Linda Gilmore University of Edinburgh, UK MLPCN Grant: 1 R03 MH085697-01 NCGC Assay Overview: Pyruvate kinase (L. Mexicana) (LmPK) enzyme was supplied as a highly purified (>95% pure) sulphate-free preparation from University of Edinburgh, UK and assayed for its ability to generate ATP from ADP using phosphoenolpyruvate (PEP) as a substrate. ATP generation was detected in a coupled reaction by luciferase-mediated luminescence, an ATP-dependent process. […] The enzyme was assayed at an intermediate level of activity to screen for both inhibitors and activators.
NCGC Assay Protocol Summary: Three uL of enzyme mix (kept on ice) in assay buffer (50 mM Imidazole pH7.2, 50 mM KCl, 7 mM MgCl2, 0.01% Tween 20, 0.05% BSA) containing PEP (0.5 mM final concentration) and LmPK (0.1 nM final concentration) was dispensed into white solid bottom 1,536 well microtiter plates. 23 nL of compound were delivered by a pin tool and 1 uL of ADP mix in assay buffer (r.t; 0.1 mM final ADP concentration) was added. Plates were incubated at room temperature for 1 hour. Two uL of detection mix (Kinase-Glo, Promega; at 4 degree Celsius protected from light) was added and luminescence read by a ViewLux (Perkin Elmer) at 1 second exposure/plate. Data were normalized to the uninhibited and AC100 inhibition (no enzyme). To monitor activation, the first column contained a five-fold concentration of LmPK (0.5 nM).
Regarding `CCOc1ccc(C2=NCC(CBr)S2)cc1` (centres undefined), the activity change, negative = inhibition was inactive: 2.63%. The value for `O=P1(Nc2nc3ccc(Cl)cc3s2)COc2ccccc2O1` (centres undefined) was inactive: -1.1%; that for `CC(=O)Nc1ccc(Oc2c([N+](=O)[O-])cc([N+](=O)[O-])cc2[N+](=O)[O-])cc1` was inactive: -0.606%. The value for `CC(=O)Nc1ccc([As](=O)(O)O)c(O)c1` was inactive: 2.35%; that for `C[C@H]1OP(=O)(Oc2ccccc2)C[C@@H]2O[C@@H]21` (some centres undefined) was inactive: -0.707%; that for `C[C@@H]1C=CCP(=O)(Oc2ccccc2)O1` (some centres undefined) was inactive: 3.87%.

Turning to `CC(=O)c1ccc(N2CC2c2ccncc2)cc1` (centres undefined), the activity change, negative = inhibition was inactive: 2.63%.

Take `Cc1cccc(OCC(=O)OC2CN3CCC2CC3)c1` (centres undefined): the activity change, negative = inhibition was inactive: 0.51%.

Consider `O=[As](O)(c1cccc(O)c1)c1cccc(O)c1`, for which the activity change, negative = inhibition was inactive: 15.1%. The value for `O=C(OC1CN2CCC1CC2)c1ccc(Cl)cc1` (centres undefined) was inactive: 3.26%; that for `CS(=O)(=O)c1ccc(Cl)c(NC(=O)COC(=O)C(O)(c2ccccc2)c2ccccc2)c1` was inactive: 0.309%. On to `O=[As](O)(O)c1cccnc1`, for which the activity change, negative = inhibition is inactive: -2.75%.

On to `COc1cc(C(=O)NCC2(N3CCOCC3)CCCCC2)cc(Cl)c1OC(C)C`, for which the activity change, negative = inhibition is inactive: 2.76%. The value for `CCOP(=O)(Nc1cccc2ccccc12)OCC` was inactive: 0.12%; that for `COc1cc(C2NCCC3(OCCO3)C2(C)C)cc(OC)c1OC` (centres undefined) was inactive: -2.52%; that for `Nc1cccc2c([As](=O)(O)O)cccc12` was inactive: -7.04%. In the case of `Cc1ccc(NCCc2c([N+](=O)[O-])cc([N+](=O)[O-])cc2[N+](=O)[O-])cc1`, the activity change, negative = inhibition is inactive: -5.73%. The value for `CCCOP(=S)(Nc1nc(N)cc(=O)[nH]1)OCCC` was inactive: 0.76%; that for `Nc1ccccc1[As](=O)(O)c1ccccc1` was inactive: 0.488%.

Turning to `O=C(O)COc1ccc([As](=O)(O)O)cc1[N+](=O)[O-]`, the activity change, negative = inhibition is inactive: -0.98%. Regarding `O=P(Nc1nccs1)(Oc1ccccc1)Oc1ccccc1`, the activity change, negative = inhibition is inactive: -0.861%.

As to `O=P(Nc1nccs1)(c1ccccc1)c1nc2ccccc2s1` (centres undefined), the activity change, negative = inhibition was inactive: -21.6%. The value for `CCOP1(=S)c2c(C)nn(CCC#N)c2N=C(c2ccccc2F)N1C` (centres undefined) was inactive: 0.284%; that for `CN(C(=O)Cc1ccccc1)[C@@H]1CC[C@]2(CCCO2)C[C@H]1N1CCCC1` was inactive: -4.16%; that for `CCOP1(=S)c2c(C)nn(CCC#N)c2N=C(c2ccc(F)cc2)N1C` (centres undefined) was inactive: 11.4%. The value for `O=[N+]([O-])c1ccc2c(c1)nnn2O` was inactive: -0.818%; that for `NC(=O)Nc1ccc([As](=O)(O)O)cc1` was inactive: -0.667%; that for `CN(C)C1(CNC(=O)c2ccc(S(C)(=O)=O)cc2)CCCCC1` was inactive: 5.64%. Regarding `O=C(/C=C/c1ccccc1)OC1CN2CCC1CC2` (centres undefined), the activity change, negative = inhibition is inactive: 2.13%.

With `CC1CCC(C(C)C)C(OP(=O)(Nc2ccccn2)c2ccccc2)C1` (centres undefined), the activity change, negative = inhibition was inactive: -3.73%.

On to `Cc1ccc(C(=O)OC2CN3CCC2CC3)cc1` (centres undefined), for which the activity change, negative = inhibition was inactive: 3.7%.

With `Cc1nn(-c2ccccc2)c2c1P(=O)(N1CCOCC1)N(C)C(c1ccccc1)=N2` (centres undefined), the activity change, negative = inhibition was inactive: 0.016%. The value for `Nc1cccc([As](=O)(O)c2ccccc2)c1` was inactive: -0.192%; that for `O=[As](O)(c1cccs1)c1cccs1` was inactive: 4.71%; that for `Cc1ccc(OCC(=O)OC2CN3CCC2CC3)cc1` (centres undefined) was inactive: 0.36%. Regarding `O=P1(Nc2ccc(Br)cn2)COc2ccccc2OC1`, the activity change, negative = inhibition is inactive: 1.87%. Consider `O=P1(Nc2ncccn2)COc2ccccc2OC1`, for which the activity change, negative = inhibition is inactive: -3.27%. The value for `CC(C)(C)C(=O)NC(Sc1ncccn1)C(Cl)(Cl)Cl` (centres undefined) was inactive: 0.545%; that for `Clc1n[nH]nc1-c1nn[nH][15n]1` was inactive: -3.33%.

In the case of `CCOP(=O)(NC(=NC(C)c1ccccc1)NC(C)c1ccccc1)OCC` (centres undefined), the activity change, negative = inhibition is inactive: -6.29%.

Take `O=P1(Nc2ccccn2)COc2ccccc2OC1`: the activity change, negative = inhibition was inactive: -4.58%. `CCC1=CC2Cc3nc4ccc(Cl)cc4c(N)c3C(C1)C2` (centres undefined): the activity change, negative = inhibition is inactive: 3.02%. The value for `CCOP(=O)(Nc1ccc(C)cn1)OCC` was inactive: -2.23%; that for `CC(C)/C=N\N=C(\N)N[N+](=O)[O-]` was inactive: -2.14%.

Regarding `CN(C(=O)Cc1ccc(Cl)c(Cl)c1)[C@@H]1CCCC[C@H]1N1CCCC1`, the activity change, negative = inhibition was inactive: -1.41%. The value for `O=[As](O)(c1ccccc1Br)c1ccccc1Br` was inactive: 3.09%; that for `O=C(Nc1ccncc1[N+](=O)[O-])c1ccc([N+](=O)[O-])cc1[N+](=O)[O-]` was inactive: 0.3%. Consider `O=C(COc1ccccc1)OC1CN2CCC1CC2` (centres undefined), for which the activity change, negative = inhibition is inactive: -3.27%. The value for `COP1(=S)c2c(C)nn(CCC#N)c2N=C(c2ccc(F)cc2)N1C` (centres undefined) was inactive: 4.87%; that for `CCC(C)N(CC(C)C)C(=S)SC(NC(C)=O)C(Cl)(Cl)Cl` (centres undefined) was inactive: 3.63%. The value for `O=C(OC1CN2CCC1CC2)c1cccc([N+](=O)[O-])c1` (centres undefined) was inactive: -3.92%; that for `CCOC(=O)c1ccc(NC(=O)C(C)(CCl)SC)cc1` (centres undefined) was inactive: -0.203%. The value for `Cc1cc(SC(NC(=O)c2ccccc2)C(Cl)(Cl)Cl)nc(C(C)C)n1` (centres undefined) was inactive: 0.489%; that for `CCCCOc1ccc(C(=O)NCC2(N3CCCCC3)CCCCC2)cc1OC` was inactive: -3.38%; that for `CCOC(=O)Nc1ccc([As](=O)(O)O)c(O)c1` was inactive: -5.04%. `O=P(Nc1ccccn1)(c1cccc2ccccc12)c1cccc2ccccc12`: the activity change, negative = inhibition is inactive: 1.16%.

For the compound `Cc1cc(SC(NC=O)C(Cl)(Cl)Cl)ncn1` (centres undefined), the activity change, negative = inhibition was inactive: 1.59%. The value for `O=[N+]([O-])c1ccc(Nc2ccc(Oc3ccc([N+](=O)[O-])cc3[N+](=O)[O-])cc2)c([N+](=O)[O-])c1` was inactive: -1.43%. The value for `CCOC(=O)Nc1cccc([As](=O)(O)O)c1` was inactive: -2.43%; that for `Cc1ccc(OP(=O)(Nc2ccc([N+](=O)[O-])cn2)Oc2ccc(C)cc2)cc1` was inactive: 1.5%. Regarding `Cc1ccc2nc3c(c(C)c2c1)CC(C(Cl)Cl)S3` (centres undefined), the activity change, negative = inhibition is inactive: -3.42%. The value for `O=[As](O)(c1ccc(O)cc1)c1ccccc1O` was inactive: 1.81%; that for `C[As](=O)(O)c1cccc(C(=O)O)c1` was inactive: -0.565%. On to `O=[N+]([O-])c1cc([N+](=O)[O-])c(-c2ccn[nH]2)s1`, for which the activity change, negative = inhibition was inactive: 3.97%. The value for `CC(C)NC(=O)NP(=O)(Oc1ccccc1)Oc1ccccc1` was inactive: -0.869%; that for `CCN(CC)C(=S)SC(NC=O)C(Cl)(Cl)Cl` (centres undefined) was inactive: -4.63%; that for `ClCCSc1nnc(-c2cccnc2)o1` was inactive: 5.46%.

In the case of `CC(C)c1ccc(OP(=O)(Nc2ccccn2)Oc2ccccc2F)cc1` (centres undefined), the activity change, negative = inhibition is inactive: -0.791%. The value for `COc1cc(I)ccc1[As](=O)(O)O` was inactive: -3.9%; that for `COc1ccc2nc(NP(=O)(c3ccccc3)c3ccccc3)sc2c1` was inactive: 2.4%; that for `Cc1c2c(nc3ccccc13)SC(C(Cl)Cl)C2` (centres undefined) was inactive: -0.424%. The value for `Cc1cc(=O)[nH]c(N[N+](=O)[O-])n1` was inactive: -3.1%. The value for `O=C(OC1CN2CCC1CC2)C12CC3CC(CC(C3)C1)C2` (centres undefined) was inactive: 4.43%; that for `COc1ccc(N/C(=N/P(=O)(N2CCOCC2)N2CCOCC2)N2CCOCC2)cc1` was inactive: 3.91%.
